Values joined by “and” are separate entries in the source; they are usually repeats but may differ in a detail not shown here. Identical values can stand only once.
Tested on: TK+ and TK− strains of HSV-1
Type: cell-based, herpes simplex virus

Structure (SMILES) | HSV-1 EC50 ratio | HSV-1 Ratio (EC50 ratio for TK− and TK+ viruses)
Nc1nc2c(ncn2COCCO)c(=O)[nH]1 [ACV, acyclovir] | 286 and >286 | 333
Nc1ncnc2c1ncn2[C@@H]1O[C@H](CO)[C@@H](O)[C@@H]1O [AraA, vidarabine] | 0.78 | –
O=c1[nH]c(=O)n([C@@H]2O[C@H](CO)[C@@H](O)[C@@H]2O)cc1/C=C/Br [BVAU, sorivudine] | >2000 | –
O=c1[nH]c(=O)n([C@H]2C[C@H](O)[C@@H](CO)O2)cc1/C=C/Br [BVDU, brivudin] | 1111 | –
O=c1[nH]c(=O)n([C@H]2C[C@H](O)[C@@H](CO)O2)cc1Br [BrdU, 5-bromodeoxyuridine] | 24 | –
Nc1nc(=O)n([C@@H]2O[C@H](CO)[C@@H](O)[C@@H]2F)cc1I [FIAC, fiacitabine] | 78 and 133 | –
O=c1[nH]c(=O)n([C@@H]2O[C@H](CO)[C@@H](O)[C@@H]2F)cc1I [FIAU, fialuridine] | 133 and 78 | –
O=c1[nH]c(=O)n([C@H]2C[C@H](O)[C@@H](CO)O2)cc1F [FdU, 5-fluorodeoxyuridine] | 1.8 | –
O=c1[nH]c(=O)n([C@H]2C[C@H](O)[C@@H](CO)O2)cc1I [IDU, idoxuridine] | 26 | 26
O=c1[nH]c(=O)n([C@H]2C[C@H](O)[C@@H](CO)O2)cc1C(F)(F)F [TFT, trifluridine] | 1.1 | –
